Reference: patent US20090131366A1, “Use of Amine-Borane Compounds as Anti-Microbial Agents” (priority 2005, published 2009)

Tests used:
Experiment in all cases: microbe, parasite or virus in culture
Candida globrata 648 = tested on: Candida globrata 648
Candida globrata 646 = tested on: Candida globrata 646
Candida krusei 638 = details: Pichia kudriavzevii
Candida krusei 603 = details: Pichia kudriavzevii
Candida globrata 566 = tested on: Candida globrata 566
Candida globrata 572 = tested on: Candida globrata 572
Candida globrata 578 = tested on: Candida globrata 578

In the case of `CCCCCCCCCCCN(C)C` [K-I2, dimethyl-undecyl-amine cyanodibromoborane], the MIC (Candida globrata 648) is reported as 20.2 µM (≈ 4.03 µg/mL), the MIC (Candida globrata 646) is reported as 20.2 µM (≈ 4.03 µg/mL) and the MIC (Candida krusei 638) is reported as 10.1 µM (≈ 2 µg/mL). The MIC (Candida krusei 603) was 10.1 µM (≈ 2 µg/mL), the MIC (Candida globrata 566) was 20.2 µM (≈ 4.03 µg/mL) and the MIC (Candida globrata 572) was 40.4 µM (≈ 8.06 µg/mL). It also gave an MIC (Candida globrata 578) of 40.4 µM (≈ 8.06 µg/mL).

Values after ≈ are worked out from the molar mass of the structure shown.
